PubChem BioAssay AID504761 – Drosophila RNAi Screening Center | 2011
In all, the deposit lists about 22,000 reagents; this is a random part of those with a known target gene and a result. In the full data, 116 (0.52%) were called active. 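Calls depend on retest data that are not deposited; infection was ranked per plate without normalising between plates; the unit of the infection score is not given.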 Raw values vary from plate to plate and are shown uncorrected. The numbers tell different reagents against one gene apart. Names joined by + are all predicted targets of the reagent. Not given: the amount of reagent, the time to read-out.

Purpose: 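Fly genes whose silencing reduces dengue virus type 2 infection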 (primary screen)
System: D.Mel-2 cells from Drosophila
Reagent: long dsRNA against Drosophila genes
Treatment: infection with dengue virus type 2; dose and infection time not stated
Measurement: 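Per well on two replicate plates, imaging gave the percent of cells positive for viral envelope protein, ranked by infection, and a nuclear count of cells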
Scale: infection score: higher = more virus-infected cells; cell count: higher = more cells in the well
Call rule: 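Low infection ranks in the two replicates (chance level up to 0.065) followed by a retest with a 1.5-fold or larger significant decrease, p below 0.05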
Meaning of the calls: active = confirmed: knock-down lowers infection; inactive = not picked or not confirmed

Gene | reagent no. | infection score, replicate 1 | infection score, replicate 2 | cell count, replicate 1 | cell count, replicate 2 | outcome
abd-A | 1 | 0.81 | 0.91 | 5201 | 4701 | inactive
abd-A | 2 | 1.82 | 1.05 | 6441 | 6786 | inactive
abd-A | 3 | 3.28 | 21.2 | 915 | 5451 | inactive
CG2921 | 1 | 33.6 | 15.4 | 5660 | 5690 | inactive
CG2921 | 2 | 6.44 | 2.85 | 6382 | 6239 | inactive
CG43737 | 1 | 6.73 | 5.8 | 6348 | 6915 | inactive
mge | 1 | 1.17 | 8.71 | 4805 | 5214 | inactive
CG12432 (retired record) | 1 | 10.5 | 5.02 | 6644 | 6292 | inactive
CG12432 (retired record) | 2 | 9.26 | 4.73 | 6218 | 5938 | inactive
CG30447 | 1 | 0.83 | 0.24 | 6400 | 4950 | inactive
side-III | 1 | 11.5 | 4.78 | 5262 | 6422 | inactive
side-III | 2 | 3.17 | 5.76 | 5967 | 6251 | inactive
side-III | 3 | 11.6 | 2.89 | 5849 | 1141 | inactive
side-III | 4 | 14.3 | 5.01 | 5980 | 6307 | inactive
Fst | 1 | 26.6 | 10.6 | 4221 | 6910 | inactive
Fst | 2 | 1.51 | 2.15 | 6222 | 6339 | inactive
CG18171 | 1 | 2.04 | 5.84 | 6477 | 5823 | inactive
CG18171 | 2 | 10.2 | 19 | 6199 | 6071 | inactive
Spase25 | 1 | 1.88 | 0.39 | 7109 | 6127 | inactive
kz | 1 | 8.23 | 8.11 | 1580 | 1024 | inactive
CG5359 + Spn85F | 1 | 15.8 | 5.36 | 5367 | 5705 | inactive
CG11788 | 1 | 2.39 | 6.5 | 5863 | 6528 | inactive
CG30047 | 1 | 1.55 | 1.49 | 5862 | 5424 | inactive
Hem | 1 | 14.5 | 10.6 | 6170 | 6669 | inactive
Ptpmeg2 | 1 | 4.08 | 2.77 | 6200 | 6207 | inactive
Ptpmeg2 | 2 | 2.65 | 3.89 | 5764 | 5960 | inactive
Ptpmeg2 | 3 | 2.1 | 3.35 | 6038 | 6306 | inactive
Ptpmeg2 | 4 | 12.8 | 16 | 6266 | 6233 | inactive
CG9313 | 1 | 21.5 | 14.9 | 6237 | 6289 | inactive
CG9313 | 2 | 11.2 | 7.78 | 6710 | 6337 | inactive
sro | 1 | 3.56 | 10.4 | 4044 | 4908 | inactive
sro | 2 | 8.17 | 31 | 6742 | 6105 | inactive
aft | 1 | 10.7 | 17.2 | 5787 | 5840 | inactive
Vm26Aa | 1 | 3.43 | 14 | 6096 | 6658 | inactive
Vm26Aa | 2 | 0.7 | 3.65 | 6310 | 6570 | inactive
CG8509 | 1 | 3.12 | 1.89 | 6145 | 6200 | inactive
CG4438 | 1 | 10.7 | 10 | 4630 | 2755 | inactive
CG4438 | 2 | 9.21 | 24.5 | 6220 | 6106 | inactive
ND-ACP | 1 | 2.7 | 2.81 | 6382 | 5475 | inactive
ldd | 1 | 4.56 | 0.08 | 5766 | 6407 | inactive
ldd | 2 | 2.79 | 6.58 | 6947 | 6486 | inactive
to | 1 | 6.87 | 1.51 | 6448 | 6475 | inactive
to | 2 | 14.3 | 11.1 | 5475 | 5922 | inactive
OtopLc | 1 | 2.17 | 4.35 | 6460 | 6688 | inactive
OtopLc | 2 | 8.19 | 4.86 | 6474 | 6524 | inactive
OtopLc | 3 | 0.57 | 1.6 | 6671 | 6766 | inactive
OtopLc | 4 | 1.27 | 2.46 | 6543 | 6637 | inactive
OtopLc | 5 | 2.95 | 7.45 | 6783 | 5757 | inactive
OtopLc | 6 | 2.09 | 20 | 623 | 4006 | inactive
CG4575 (retired record) | 1 | 35.7 | 19.9 | 4927 | 5765 | inactive
l(3)mbt | 1 | 2.54 | 5.17 | 5903 | 5782 | inactive
l(3)mbt | 2 | 4.89 | 6.85 | 5802 | 5826 | inactive
Ccdc85 | 1 | 0.58 | 9.56 | 6390 | 6149 | inactive
CG40005 (retired record) + cta | 1 | 1.89 | 11.2 | 6204 | 5808 | inactive
whd | 1 | 4.83 | 7.96 | 6019 | 6423 | inactive
Opa1 | 1 | 23.2 | 15.7 | 4417 | 5991 | inactive
Opa1 | 2 | 7.61 | 1.18 | 1471 | 509 | inactive
CG14837 | 1 | 3.92 | 0.91 | 6327 | 6365 | inactive
